Like-named read-outs stand apart in the source and are kept apart here.
B1: mAb11002 (antibody)
heavy: EVQLVESGGGLVQPGGSLRLSCAASGFTVSSNYMSWVRQAPGKGLEWVSVIYSGGSTFYADSVKGRFTISRHNSKNTLYLQMNSLRAEDTAVYYCAREGYGMDVWGQGTTVTVSSASTKGPSVFPLAPSSKSTSGGTAALGCLVKDYFPEPVTVSWNSGALTSGVHTFPAVLQSSGLYSLSSVVTVPSSSLGTQTYICNVNHKPSNTKVDKKV[human IgG1 Fc left out here]
light: [about 100 residues left out here][about 120 residues left out here]
B2: mAb10914 (antibody)
heavy: EVQLVESGGGLVQPGGSLRLSCAASGLIVSRNYMIWVRQAPGKGLEWVSVIYSGGSTFYADSVKGRFTISRHNSKNTLYLQMNSLRAEDTAVYYCARDLGTGGMDVWGQGTTVTVSSASTKGPSVFPLAPSSKSTSGGTAALGCLVKDYFPEPVTVSWNSGALTSGVHTFPAVLQSSGLYSLSSVVTVPSSSLGTQTYICNVNHKPSNTKVDKKV[human IgG1 Fc left out here]
light: DIQLTQSPSFLSASVGDRVTITCWASQGISSYLAWYQQKPGKAPKLLIYAASTLQSGVPSRFSGSGSGTEFTLTISSLQPEDFATYYCQQLNSYPLTFGGGTKVEIKRTVAAPSVFIFPPSDEQLKSGTASVVCLLNNFYPREAKVQWKVDNALQSGNSQESVTEQDSKDSTYSLSSTLTLSKADYEKHKVYACEVTHQGLSSPVTKSFNRGEC
B3: mAb10913 (antibody)
heavy: EVQLVESGGGLVQPGGSLRLSCAASGFTFRNYEMNWVRQAPGKGLEWVSYITSSGSTMYYADSVKGRFTISRDNAKNSLYLQMNSLRAEDTAVYYCARDGFYYYYAMDVWGQGTTVTVSSASTKGPSVFPLAPSSKSTSGGTAALGCLVKDYFPEPVTVSWNSGALTSGVHTFPAVLQSSGLYSLSSVVTVPSSSLGTQTYICNVNHKPSNTKVDKKV[human IgG1 Fc left out here]
light: QSVLTQPPSVSAAPGQKVTISCSGSSSNIGNNYVSWYQQLPGTAPKLLIYDNNKRPSGIPDRFSGSKSGTSATLGITGLQTGDEADYYCGTWDSSLSVGRVFGTGTKVTVLGQPKAAPSVTLFPPSSEELQANKATLVCLISDFYPGAVTVAWKADSSPVKAGVETTTPSKQSNNKYAASSYLSLTPEQWKSHRSYSCQVTHEGSTVEKTVAPTECS
B4: mAb10932 (antibody)
heavy: EVQLVESGGGLVQSGGSLRLSCAASGLTVSSNYMSWVRQAPGKGLEWVSVIYSGGSTFYSDSVKGRFTISRHNSKNTLYLQMNSLRAEDTAVYYCARARGDAFDIWGQGTMVTVSSASTKGPSVFPLAPSSKSTSGGTAALGCLVKDYFPEPVTVSWNSGALTSGVHTFPAVLQSSGLYSLSSVVTVPSSSLGTQTYICNVNHKPSNTKVDKKV[human IgG1 Fc left out here]
light: DIQMTQSPSSLSASVGDRVTITCQASQGISNYLNWYQQKPGKAPKLLISDASNLETGVPSRFSGSGSGTDFTFTISSLQPEDIATYYCQQYDNLRFFTFGPGTKVDIKRTVAAPSVFIFPPSDEQLKSGTASVVCLLNNFYPREAKVQWKVDNALQSGNSQESVTEQDSKDSTYSLSSTLTLSKADYEKHKVYACEVTHQGLSSPVTKSFNRGEC

Experiments:
Conditions in all cases: remark: other sources report otherwise
[1] = molecular target: SARS-CoV-2 Spike Protein (RBD)([…]).mmH (SARS-CoV-2); experiment: Luminex bead assay, supernatant
[2] = molecular target: SARS-CoV-2 Spike Protein (RBD)([…]).mmH (SARS-CoV-2); experiment: Luminex bead assay, supernatant; remark: listed apart in the source
[3] = molecular target: T1, SARS-COV-2-S RBD extracellular domain expressed with a C-terminal myc-myc-hexahistidine (SARS-COV-2 RBD-MMH) (SARS-CoV-2)
[4] = molecular target: T1, SARS-COV-2-S RBD extracellular domain …; remark: listed apart in the source

Row | Binder | Binding signal (MFI) [1] | Binding signal (MFI) [2] | t½ [3] | t½ [4]
1 | B1 | 11600 MFI | 10200 MFI |  | 
2 | B2 |  |  | 1 min | 1.2 min
3 | B3 |  |  |  | 0.3 min
4 | B4 |  |  |  | 5.5 min

Reference: patent US20230348569A1
